Experimental findings from patent US20040102431A1, “Substituted amino-aza-cycloalkanes useful against malaria” (priority 2000, published 2004) are described below.

Sequences of proteins named here, by UniProt entry; tags and fusion partners are left off. Residues count along the entry.
UniProt P46925, 125-453 limits assumed: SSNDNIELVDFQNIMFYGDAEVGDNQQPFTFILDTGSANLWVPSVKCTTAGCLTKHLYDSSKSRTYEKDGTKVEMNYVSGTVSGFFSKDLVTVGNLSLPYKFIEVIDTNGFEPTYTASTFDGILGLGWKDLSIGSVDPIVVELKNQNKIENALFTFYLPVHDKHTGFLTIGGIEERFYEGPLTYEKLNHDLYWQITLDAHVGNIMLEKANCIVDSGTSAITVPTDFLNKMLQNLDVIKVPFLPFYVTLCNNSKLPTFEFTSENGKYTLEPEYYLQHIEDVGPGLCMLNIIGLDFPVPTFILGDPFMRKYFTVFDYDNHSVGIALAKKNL

This assay concerns the target plasmepsin II (Plasmodium falciparum, UniProt P46925). In words: fluorescence resonance energy transfer (FRET) assay for plasmepsin II. The settings on record: read-out: IC50 (nM) on plasmepsin II, Table 1, selected compounds, pH 5, 37° C., 40 min, substrate 1 μM. The format is biochemical.

Only a part of the results on these compounds is given; other tests are left out.

As for `CCCCCc1ccc(C(=O)N(c2ccc(OCc3ccccc3)cc2)C2CCN(Cc3ccccc3)CC2)cc1`, the IC50 (commonly the concentration that inhibits the measured activity by half) came out at 1530 nM.
